Results of unrelated studies side by side (data: NIAID ChemDB).

All rows: whole-cell or culture tests; agent: Mycobacterium fortuitum; measure: MIC90

Two numbers with a dash give a range or band. An empty or dashed field is not shown. A number after MIC or MFC names an inhibition level or a share of isolates. Lines come from different laboratories, so protocols vary.

| SMILES | strain or isolate | result |
|---|---|---|
| CCn1cc(C(=O)O)c(=O)c2cc(F)c(N3CCNCC3)cc21 | 80 strains | 4 µg/mL |
| NCC[C@H](O)C(=O)N[C@@H]1C[C@H](N)[C@@H](O[C@H]2O[C@H](CN)[C@@H](O)[C@H](O)[C@H]2O)[C@H](O)[C@H]1O[C@H]1O[C@H](CO)[C@@H](O)[C@H](N)[C@H]1O | 10 strains | 8 µg/mL |
| CO[C@H]1/C=C/O[C@@]2(C)Oc3c(C)c(O)c4c(O)c(c5c(c4c3C2=O)NC2(CCN(CC(C)C)CC2)N=5)=NC(=O)/C(C)=C\C=C\[C@H](C)[C@H](O)[C@@H](C)[C@@H](O)[C@@H](C)[C@H](OC(C)=O)[C@@H]1C | 20 strains | 6.25 µg/mL |
| CC[C@H]1OC(=O)[C@H](C)[C@@H](O[C@H]2C[C@@](C)(OC)[C@@H](O)[C@H](C)O2)[C@H](C)[C@@H](O[C@@H]2O[C@H](C)C[C@H](N(C)C)[C@H]2O)[C@](C)(OC)C[C@@H](C)C(=O)[C@H](C)[C@@H](O)[C@]1(C)O | 48 strains | 64 µg/mL |
| CCn1cc(C(=O)O)c(=O)c2cc(F)c(N3CCNCC3)nc21 | 19 strains | 2 µg/mL |
| CO[C@H]1/C=C/O[C@@]2(C)Oc3c(C)c(O)c4c(=O)c(c5oc6cc(N7CCN(CC(C)C)CC7)cc(=O)c6nc5c4c3=C2O)NC(=O)/C(C)=C\C=C\[C@H](C)[C@H](O)[C@@H](C)[C@@H](O)[C@@H](C)[C@H](OC(C)=O)[C@@H]1C | 20 strains | >100 µg/mL |
| CC[C@H]1OC(=O)[C@H](C)C(=O)[C@H](C)[C@@H](O[C@@H]2O[C@H](C)C[C@H](N(C)C)[C@H]2O)[C@](C)(OC)C[C@@H](C)C(=O)[C@H](C)[C@H]2N(CCCCn3cnc(-c4cccnc4)c3)C(=O)O[C@]12C | 48 strains | >64 µg/mL |
| CC1CN(c2cc3c(cc2F)c(=O)c(C(=O)O)cn3-c2ccc(F)cc2F)CCN1 | 19 strains | 0.5 µg/mL |
| CCCN1CCN(c2cc(=O)c3nc4c(oc3c2)c2c(=O)c3c(O)c(C)c5c(c34)=C(O)[C@@](C)(O/C=C/[C@H](OC)[C@@H](C)[C@@H](OC(C)=O)[C@H](C)[C@H](O)[C@H](C)[C@@H](O)[C@@H](C)/C=C/C=C(/C)C(=O)N2)O5)CC1 | 20 strains | >100 µg/mL |
| CC1COc2c(N3CCN(C)CC3)c(F)cc3c(=O)c(C(=O)O)cn1c23 | - | 0.4–1.2 µg/mL |
| CN[C@@H]1[C@@H](O)[C@@H](O[C@@H]2[C@@H](O)[C@H](O[C@H]3O[C@H](CN)CC[C@H]3N)[C@@H](N)C[C@H]2N)OC[C@]1(C)O | 18 strains | 16 µg/mL |
| CCn1cc(C(=O)O)c(=O)c2cc(F)c(-n3cccc3)cc21 | 19 strains | 64 µg/mL |
| CO[C@@]1(NC(=O)Cc2cccs2)C(=O)N2C(C(=O)O)=C(COC(N)=O)CS[C@@H]21 | 18 strains | ≥64 µg/mL |
| CNn1cc(C(=O)O)c(=O)c2cc(F)c(N3CCN(C)CC3)cc21 | 19 strains | 2 µg/mL |

The last 2 rows once more:

SMILES | strain or isolate | result
CO[C@@]1(NC(=O)Cc2cccs2)C(=O)N2C(C(=O)O)=C(COC(N)=O)CS[C@@H]21 | 18 strains | ≥64 µg/mL
CNn1cc(C(=O)O)c(=O)c2cc(F)c(N3CCN(C)CC3)cc21 | 19 strains | 2 µg/mL